# Reference: patent US9717746B2 (priority 2014, dated 2017)
# System: hippocampal slices
compound,measurement,value
CN1CCN(CC(=O)N2c3ccccc3C(=O)Nc3cccnc32)CC1 [pirenzepine],protection against DFP neurotoxicity (percentage area of PS recovered),prevents a neurotoxic effect
